System: Cowpox virus
Test: Antiviral activity against cowpox virus by CPE assay
Assay type: functional, organism-based

Structure (SMILES) | EC50 [µM]
O=C(NN1C(=O)[C@@H]2C3C=CC(C4CC43)[C@@H]2C1=O)c1cccc(Br)c1 (some centres undefined) | 0.6
Cc1cc(C(=O)NN2C(=O)[C@@H]3C4C=CC(C5CC54)[C@@H]3C2=O)[nH]n1 (some centres undefined) | > 20
Nc1ccc(C(=O)NN2C(=O)[C@@H]3C4C=CC(C5CC54)[C@@H]3C2=O)cc1 (some centres undefined) | > 20
CN(C)c1ccc(C(=O)NN2C(=O)[C@@H]3C4C=CC(C5CC54)[C@@H]3C2=O)cc1 (some centres undefined) | 15.5
O=C(NN1C(=O)[C@@H]2C3C=CC(C4CC43)[C@@H]2C1=O)c1ccccn1 (some centres undefined) | > 20
O=C(NN1C(=O)[C@@H]2C3C=CC(C4CC43)[C@@H]2C1=O)c1ccc([N+](=O)[O-])cc1 (some centres undefined) | 0.15
O=C(NN1C(=O)[C@@H]2C3C=CC(C4CC43)[C@@H]2C1=O)c1ccc(C(F)(F)F)cc1 (some centres undefined) | 0.6
COc1ccc(C(=O)NN2C(=O)[C@@H]3C4C=CC(C5CC54)[C@@H]3C2=O)cc1 (some centres undefined) | > 20
O=C(NN1C(=O)[C@@H]2C3C=CC(C4CC43)[C@@H]2C1=O)c1cccnc1 (some centres undefined) | > 20
Cn1cccc1C(=O)NN1C(=O)[C@@H]2C3C=CC(C4CC43)[C@@H]2C1=O (some centres undefined) | > 20
O=C(NN1C(=O)[C@@H]2C3CCC(C4CC43)[C@@H]2C1=O)c1ccc(C(F)(F)F)cc1 (some centres undefined) | 0.3
O=C(NN1C(=O)[C@@H]2C3C=CC(C4CC43)[C@@H]2C1=O)c1ccccc1Br (some centres undefined) | > 20
O=C(NN1C(=O)[C@@H]2C3C=CC(C4CC43)[C@@H]2C1=O)c1ccc(Br)cc1 (some centres undefined) | 1.6
O=C(NN1C(=O)[C@@H]2C3C=CC(C4CC43)[C@@H]2C1=O)c1ccncc1 (some centres undefined) | 17.2

Source: ChEMBL document CHEMBL1142975 (J Med Chem, 2007)
